Results on two substances are retold here after PMC3144219, “Identification of Inhibitors against Mycobacterium tuberculosis Thiamin Phosphate Synthase, an Important Target for the Development of Anti-TB Drugs” (PLoS ONE, 2011).

By UniProt entry, the sequences of proteins in these tests, tags left out. Where a name states a change or a piece, a line headed by the entry shows the natural chain unless it says otherwise.
UniProt P9WG75: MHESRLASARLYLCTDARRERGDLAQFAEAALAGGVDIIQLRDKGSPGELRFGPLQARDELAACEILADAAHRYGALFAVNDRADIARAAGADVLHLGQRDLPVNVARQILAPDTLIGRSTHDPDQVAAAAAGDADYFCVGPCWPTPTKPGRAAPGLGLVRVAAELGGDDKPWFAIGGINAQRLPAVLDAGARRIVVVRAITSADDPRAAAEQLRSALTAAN

Experiment [1] deals with M.tuberculosis H37Rv. Briefly: MIC99 determination in broth culture with CFU plating. Format: cell-based. The note with it: 7 days, 99% inhibition of growth.
Experiment [2] addresses M.tuberculosis thiamin phosphate synthase (MtTPS) (Mycobacterium tuberculosis, UniProt P9WG75). Briefly: Thiamin phosphate synthase thiochrome assay (inhibition of MtTPS activity). The note with it: for IC50: MtTPS activity, HMP-PP 5 µM (the Km value); for percent inhibition of MtTPS activity: compound at 100 µg/ml, normal assay conditions.

A value given as a limit tells only on which side of the number the result lay.

For “2-{5-[2,4,6-trinitrophenyl)amino]-1H-tetrazol-1-yl}ethanol”, in experiment [1], the “MIC99 for M.tuberculosis” value came out at 300 µg/mL. Further, in experiment [2], the IC50 turned out to be 20 µ/ml and the “percent inhibition of MtTPS activity” value was “greater than 20%”.

Turning to “3-benzhydryloxy-8-methyl-8-azab icyclo [3.2.1]octane;methanesulfonic acid”, in experiment [2], the IC50 is given as greater than 100 µ/ml and the “percent inhibition of MtTPS activity” value is recorded as “greater than 20%”.
